PubChem BioAssay AID1259414, Drosophila RNAi Screening Center | 2018

Aim: 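Fly genes that alter Wolbachia amount inside host cells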 (primary screen)
System: Drosophila JW18 cells infected with Wolbachia
Knock-down reagent: long dsRNA against Drosophila genes, 0.25 µg dsRNA per well of a 384-well plate
Timing: 5 days
Challenge: cells persistently infected with Wolbachia before knock-down; no added drug
Measured: 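Imaged fluorescence in situ signal for Wolbachia 23S rRNA per DAPI-counted host cell, given as a robust z-score within each plate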
Scale: Wolbachia per cell robust z: higher = more Wolbachia per host cell than the plate typical
Active means: 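Active if absolute robust z reaches 1.5 in two or more of three replicates, leaving out multi- or no-target dsRNAs, genes unexpressed in JW18 and A1 wells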
The deposit covers about 24,000 reagents; shown is a random part of those with a known target gene and a result. Over the whole deposit, about 1,210 (5%) were called active. 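Inactive calls also include excluded dsRNAs with several or no targets, genes unexpressed in JW18, and well A1, regardless of score.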 A number with no mark means an inactive call.

CG14160 [DRSC10161] gave Wolbachia per cell robust z, rep 1 = -2.13; Wolbachia per cell robust z, rep 2 = -0.113; Wolbachia per cell robust z, rep 3 = 0.812.
Depletion of galla-2 [DRSC10936] gave: Wolbachia per cell robust z, rep 1 = -0.141; Wolbachia per cell robust z, rep 2 = 0.311; Wolbachia per cell robust z, rep 3 = 1.53.
After knock-down of galla-2 [DRSC21949], the screen gave Wolbachia per cell robust z, rep 1 = -1.77 (active); Wolbachia per cell robust z, rep 2 = -2.24; Wolbachia per cell robust z, rep 3 = -1.6.
Against CG40160 [DRSC37756] the deposit lists Wolbachia per cell robust z, rep 1 = 0.366; Wolbachia per cell robust z, rep 2 = 0.461; Wolbachia per cell robust z, rep 3 = 1.17.
Depletion of CG7133 [DRSC11798] resulted in: Wolbachia per cell robust z, rep 1 = -0.341; Wolbachia per cell robust z, rep 2 = -5.19; Wolbachia per cell robust z, rep 3 = 0.786.
Silencing of Nf1 [DRSC16758] resulted in: Wolbachia per cell robust z, rep 1 = -0.618; Wolbachia per cell robust z, rep 2 = -0.887; Wolbachia per cell robust z, rep 3 = -0.201.
After knock-down of Nf1 [DRSC29934] the results were Wolbachia per cell robust z, rep 1 = -5.87 (active); Wolbachia per cell robust z, rep 2 = -3.63; Wolbachia per cell robust z, rep 3 = 1.32.
CG15719 [DRSC19685] showed Wolbachia per cell robust z, rep 1 = -3.48; Wolbachia per cell robust z, rep 2 = -1.02; Wolbachia per cell robust z, rep 3 = 0.52.
Knock-down of rig [DRSC06053] resulted in: Wolbachia per cell robust z, rep 1 = 1.33; Wolbachia per cell robust z, rep 2 = 1.62; Wolbachia per cell robust z, rep 3 = 0.0102.
rig [DRSC06400] showed Wolbachia per cell robust z, rep 1 = -0.147; Wolbachia per cell robust z, rep 2 = 0.55; Wolbachia per cell robust z, rep 3 = -2.28.
After knock-down of CG1801 [DRSC20556], the screen gave Wolbachia per cell robust z, rep 1 = -0.713; Wolbachia per cell robust z, rep 2 = -0.883; Wolbachia per cell robust z, rep 3 = -0.24.
mRpS21 [DRSC12965] gave Wolbachia per cell robust z, rep 1 = -0.288; Wolbachia per cell robust z, rep 2 = -0.807; Wolbachia per cell robust z, rep 3 = -0.314.
Knock-down of mRpS21 [DRSC21357] came out at: Wolbachia per cell robust z, rep 1 = -0.189; Wolbachia per cell robust z, rep 2 = -1.31; Wolbachia per cell robust z, rep 3 = -1.54.
After knock-down of mRpS21 [DRSC29842], the record shows Wolbachia per cell robust z, rep 1 = 0.284; Wolbachia per cell robust z, rep 2 = -0.439; Wolbachia per cell robust z, rep 3 = 0.916.
With knock-down of CG40006 [DRSC03787], the record shows Wolbachia per cell robust z, rep 1 = -0.447; Wolbachia per cell robust z, rep 2 = -0.222; Wolbachia per cell robust z, rep 3 = 0.446.
CG40006 [DRSC03809] showed Wolbachia per cell robust z, rep 1 = 0.689; Wolbachia per cell robust z, rep 2 = 0.552; Wolbachia per cell robust z, rep 3 = -0.729.
For CG40006 [DRSC03814] the deposit lists Wolbachia per cell robust z, rep 1 = 0.662; Wolbachia per cell robust z, rep 2 = -0.284; Wolbachia per cell robust z, rep 3 = -2.5.
With knock-down of CG40006 [DRSC03817], the record shows Wolbachia per cell robust z, rep 1 = 0.611; Wolbachia per cell robust z, rep 2 = -0.683; Wolbachia per cell robust z, rep 3 = -0.018.

In a second layout: results already given
gene knocked down,DRSC id,"Wolbachia per cell robust z, rep 1","Wolbachia per cell robust z, rep 2","Wolbachia per cell robust z, rep 3"
Nf1,DRSC16758,-0.618,-0.887,-0.201
Nf1,DRSC29934,-5.87 (active),-3.63,1.32
